The source holds more than one record for some entries. The list is limited to them. The source may hold further records. The values listed for one entry differ for a reason that is not stated; some may be repeats, others may stem from another dose, organism or construct than stated.
Test system: erythrocytes infected with 3D7 trophozoites
Assay: Untargeted LC-MS metabolite profiling, intracellular metabolites of parasitised erythrocytes
Type: cell-based, Plasmodium falciparum

SMILES: COc1ccc2c(c1)OC(O)(C(F)(F)C(F)(F)F)CC2=O (centres unmarked) [MMV007839]
- Isopentenylpyrophosphate log2 ratio (+MMV007839/-MMV007839): 0.3029, 0.5352, 0.1765
- Isopentenylpyrophosphate, Average: 0.3029, 0.5352, 0.1765

Reference: publication PMC5298231, “The Malaria Parasite's Lactate Transporter PfFNT Is the Target of Antiplasmodial Compounds Identified in Whole Cell Phenotypic Screens” (PLoS Pathogens, 2017)
